Test results: patent US7947741B2, “Use and administration of bacterial efflux pump inhibitors” (Mpex Pharmaceuticals, Inc., priority 2004, dated 2011)

Key:
Type in all cases: cell-based, Pseudomonas aeruginosa
[1] = system: P. aeruginosa PAM1481 (MexAB-OprM; gyrA (Asp87Tyr)); test: microbe, parasite or virus in culture
[2] = system: P. aeruginosa PAM1573 (MexAB-OprM; gyrA (Thr83Ile)); test: microbe, parasite or virus in culture
[3] = system: P. aeruginosa PAM1483 (MexAB-OprM, MexCD-OprJ; gyrA (Asp87Tyr)); test: microbe, parasite or virus in culture
[4] = system: P. aeruginosa PAM1609 (MexAB-OprM; gyrA (Thr83Ile), parC (Ser87Leu), gyrA (Asp87Tyr))
[5] = system: P. aeruginosa PAM1582 (MexAB-OprM; gyrA (Thr83Ile), parC (Ser87Leu))
[6] = Pseudomonas aeruginosa, read-out: Ciprofloxacin MIC w/o pentamidine

SMILES	Ciprofloxacin MIC w/pentamidine at 20 μg/ml ([1]; PAM1481)	Levofloxacin MIC w/pentamidine at 20 μg/ml ([1]; PAM1481)	Ciprofloxacin MIC w/pentamidine at 20 μg/ml ([2]; PAM1573)	Levofloxacin MIC w/pentamidine at 20 μg/ml ([2]; PAM1573)	Ciprofloxacin MIC w/pentamidine at 20 μg/ml ([3]; PAM1483)	Levofloxacin MIC w/pentamidine at 20 μg/ml ([3]; PAM1483)	Ciprofloxacin MIC w/pentamidine at 20 μg/ml [4]	Levofloxacin MIC w/pentamidine at 20 μg/ml [4]	Ciprofloxacin MIC w/pentamidine at 20 μg/ml [5]	Levofloxacin MIC w/pentamidine at 20 μg/ml [5]	MIC [1, 6]	MIC [2, 6]	MIC [3, 6]
N=C(N)c1ccc(OCCCCCOc2ccc(C(=N)N)cc2)cc1 [Pentamidine, pentamidine]	0.5 µg/mL	1 µg/mL	1 µg/mL	1 µg/mL	2 µg/mL	1 µg/mL	16 µg/mL	16 µg/mL	8 µg/mL	4 µg/mL	–	–	–
O=C(O)c1cn(C2CC2)c2cc(N3CCNCC3)c(F)cc2c1=O [Ciprofloxacin, ciprofloxacin]	–	–	–	–	–	–	–	–	–	–	4 µg/mL (≈ 12.1 µM)	8 µg/mL (≈ 24.1 µM)	8 µg/mL (≈ 24.1 µM)

≈ marks a conversion by molar mass, not a printed value.
